{"source": "patent US4938956A", "about": "“Synergistic immunostimulating composition and method” (priority 1987, dated 1990)", "test_system": "pseudorabies virus (PrV)", "design": "species or system mice", "conditions": "mouse, in vivo", "note": "Values joined by “and” are separate entries in the source; they are usually repeats but may differ in a detail not shown here. Identical values can stand only once.", "data": [{"substance": "IL-2", "values": [{"measurement": "Median Survival Times", "value": "3 days and 4 days and 3.3 days and 4.5 days and 5 days and 3.7 days"}]}]}
